Results of unrelated studies side by side (data: NIAID ChemDB).

Common to all: tests in culture; species: Enterococcus faecalis; measure: MIC

Lines come from different laboratories, so protocols vary.

structure,strain,result
CC(=O)NC[C@H]1CN(c2ccc(-c3ccn(CCC#N)n3)c(F)c2)C(=O)O1,UC9217,8 µg/mL
O=C(O)NC[C@H]1CC(c2cc(F)c(N3CCOCC3)c(F)c2)=NO1,UC9217,4 µg/mL
O=C(Nc1cccc(C2=NCCN2)c1)Nc1cccc(C(F)(F)F)c1,STD44,75 µM
C=CC(=O)NC[C@H]1CN(c2ccc(C3CCS(=O)(=O)CC3)c(F)c2)C(=O)O1,UC9217,1 µg/mL
CC(=O)NC[C@H]1CN(c2ccc(-c3ccn(C(C)=O)n3)c(F)c2)C(=O)O1,UC9217,8 µg/mL
COC(=O)N1CC=C(c2ccc(C3=NO[C@@H](CNC(=O)O)C3)cc2)CC1,UC9217,4 µg/mL
O=C(CC(=O)Nc1cccc(C(F)(F)F)c1)Nc1cccc(C(F)(F)F)c1,STD44,>300 µM
CC(=O)NC[C@H]1CN(c2ccc(-c3cnn(C(c4ccccc4)(c4ccccc4)c4ccccc4)c3)c(F)c2)C(=O)O1,UC9217,>32 µg/mL
O=C(O)NC[C@H]1CC(c2ccc(-n3cccc3)c(F)c2)=NO1,UC9217,4 µg/mL
O=C(NCCO)NNC(=O)Nc1cc(C(F)(F)F)cc(C(F)(F)F)c1,STD44,>300 µM
CC(=O)NC[C@H]1CN(c2ccc(-c3ccn(CC#N)n3)c(F)c2)C(=O)O1,UC9217,4 µg/mL
O=C(Nc1cccc(C2=NCCN2)c1)Nc1cccc(C2=NCCN2)c1,STD44,>300 µM
CC(=O)NC[C@H]1CN(c2ccc(C3CCS(=O)(=O)CC3)c(F)c2)C(=O)O1,UC9217,1 µg/mL
O=C(O)NC[C@H]1CC(c2cc(F)c(N3CCN(C(=O)CO)CC3)c(F)c2)=NO1,UC9217,2 µg/mL
O=C(Nc1cc(C(F)(F)F)cc(C(F)(F)F)c1)NS(=O)(=O)c1ccc(OC(F)(F)F)cc1,STD44,50 µM

A second listing of 2 rows from above:

structure,strain,result
O=C(O)NC[C@H]1CC(c2cc(F)c(N3CCN(C(=O)CO)CC3)c(F)c2)=NO1,UC9217,2 µg/mL
O=C(NCCO)NNC(=O)Nc1cc(C(F)(F)F)cc(C(F)(F)F)c1,STD44,>300 µM